# System: S. aureus RN4220 cultures (drcAB-expressing and non-expressing)
# Assay: Fate of DAP in culture supernatants, LC-MS/MS
# Format: cell-based, Staphylococcus aureus
# Conditions: 37 °C; for loss of the initial DAP concentration in supernatant: S. aureus RN4220_Pxyl/tet-drcAB, MH broth spiked with 16 μg/mL DAP, after 24 h, biological n = 2 with technical n = 5 each
smiles,measurement,setting,value
"CCCCCCCCCC(=O)N[C@@H](Cc1c[nH]c2ccccc12)C(=O)N[C@H](CC(N)=O)C(=O)N[C@@H](CC(=O)O)C(=O)N[C@@H]1C(=O)NCC(=O)N[C@@H](CCCN)C(=O)N[C@@H](CC(=O)O)C(=O)N[C@H](C)C(=O)N[C@@H](CC(=O)O)C(=O)NCC(=O)N[C@H](CO)C(=O)N[C@@H]([C@H](C)CC(=O)O)C(=O)N[C@@H](CC(=O)c2ccccc2N)C(=O)O[C@@H]1C [DAP, Daptomycin]",loss of the initial DAP concentration in supernatant,"ATc-induced (100 ng/mL) drcAB expression, 200 rpm, P < 0.001",83.33%
same,loss of the initial DAP concentration in supernatant,"drcAB not induced (no ATc), P = 0.03",12.57%
same,DAP concentration in supernatant over time,"S. aureus RN4220 empty vector, MH broth spiked with 0.25 μg/mL DAP, 0 to 24 h",remained unaffected
